Test results: US20160213003A1, “APPLICATION OF POLYOXOMETALATE IN PREPARATION OF DISINFECTANT FOR STERILIZING AND REMOVING FORMALDEHYDE” (NINGBO YUCHEN ENVIROCLEAN TECH CO., LTD., priority 2013, published 2016)

Assay: Removal of formaldehyde from air in a sealed stainless steel box

Potassium polytungstate [K3[PW12O40]]
concentration of formaldehyde in the air (time 0 hour (initial concentration), sealed box 0.7 m×0.7 m×0.7 m): 10 ppm
concentration of formaldehyde in the air (time 1 hour, initial 10 ppm, sealed box): 7.1 ppm
concentration of formaldehyde in the air (time 2 hour, initial 10 ppm, sealed box): 5.3 ppm
concentration of formaldehyde in the air (time 3 hour, initial 10 ppm, sealed box): 3.7 ppm
concentration of formaldehyde in the air (time 4 hour, initial 10 ppm, sealed box): 2.5 ppm
concentration of formaldehyde in the air (time 5 hour, initial 10 ppm, sealed box): 1.3 ppm
